RC index of single-base changes in HIV-1 RT

Protein: RT of HIV-1 NL4-3, numbered from its first residue.
Effects on overlapping genes or RNA elements are not listed.

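Random point mutant libraries of HIV-1 NL4-3, one for each of seven fragments, were passaged in CEM T lymphocytes. The RC index is the frequency of a change after passage round 2 divided by its frequency in the plasmid library.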

Values are the RC index; higher means better tolerated. The authors read about 0.1 or less as lethal, 0.1-0.2 as attenuated and 0.2 or more as tolerated.
Substitutions are written as wild-type residue, site number, new residue.
Input reads are the counts in the plasmid library.
Since each clone held several changes (about five per kb), neutral changes can read low.
The authors read an index above 1 as above wild type (1.9% of all changes in the genome).
Base changes are numbered along pNL4-3.

* V8L (base G2571C, input reads 160) -> 0.107
* G15R (base G2592A, input reads 276) -> 0.224
* V35L (base G2652C, input reads 166) -> 0.0642
* E36G (base A2656G, input reads 320) -> 0.0599
* E44D (base A2681T, input reads 459) -> 0.0650
* S48A (base T2691G, input reads 100) -> 0.0964
* P52H (base C2704A, input reads 690) -> 0.0726
* T58I (base C2722T, input reads 457) -> 0.0783
* F61L (base T2730C, input reads 88) -> 0.0774
* S68T (base G2752C, input reads 95) -> 0.0896
* N81K (base T2792A, input reads 110) -> 0.0619
* I94L (base A2829T, input reads 447) -> 0.0186
* Y115D (base T2892G, input reads 47) -> 0.0886
* V118I (base G2901A, input reads 291) -> 0.0608
* F124L (base T2919C, input reads 242) -> 0.0344
* A129T (base G2934A, input reads 494) -> 0.114
* A129V (base C2935T, input reads 432) -> 0.0675
* N137D (base A2958G, input reads 116) -> 0.0628
* G141R (base G2970A, input reads 98) -> 0.475
* Y146H (base T2985C, input reads 182) -> 0.161
* A158S (base G3021T, input reads 266) -> 0.0973
* Q161L (base A3031T, input reads 444) -> 0.0427
* Q174H (base A3071C, input reads 127) -> 0.0543
* N175Y (base A3072T, input reads 273) -> 0.0253
* Q182R (base A3094G, input reads 332) -> 0.0416
* V189E (base T3115A, input reads 204) -> 0.0921
* S191P (base T3120C, input reads 274) -> 0.0754
* L193F (base A3128T, input reads 474) -> 0.0317
* Q207P (base A3169C, input reads 67) -> 0.0841
* L209R (base T3175G, input reads 72) -> 0.104
* E224G (base A3220G, input reads 121) -> 0.140
* G231S (base G3240A, input reads 207) -> 0.157
* T253N (base C3307A, input reads 140) -> 0.142
* R277K (base G3379A, input reads 148) -> 0.335
* N306S (base A3466G, input reads 145) -> 0.0328
* A327T (base G3528A, input reads 341) -> 0.835
* Q336R (base A3556G, input reads 283) -> 0.0479
* P345T (base C3582A, input reads 111) -> 0.140
* K353M (base A3607T, input reads 384) -> 0.0353
* K358M (base A3622T, input reads 320) -> 0.0969
* A360D (base C3628A, input reads 136) -> 0.114
* T362N (base C3634A, input reads 143) -> 0.108
* L368V (base T3651G, input reads 34) -> 0.0781
* E378G (base A3682G, input reads 240) -> 0.0885
* I380L (base A3687T, input reads 340) -> 0.0468
* K385R (base A3703G, input reads 189) -> 0.0843
* K390I (base A3718T, input reads 299) -> 0.0799
* V417A (base T3799C, input reads 209) -> 0.140
* A437E (base C3859A, input reads 49) -> 0.0745
* A446T (base G3885A, input reads 262) -> 0.230
* N447H (base A3888C, input reads 40) -> 0.0913
* K451N (base A3902T, input reads 122) -> 0.0299
* T473S (base A3966T, input reads 281) -> 0.0609
* A481P (base G3990C, input reads 45) -> 0.0845
* L486F (base G4007C, input reads 182) -> 0.188
* K512T (base A4084C, input reads 159) -> 0.0722
* S519C (base A4104T, input reads 328) -> 0.0250
* V531D (base T4141A, input reads 228) -> 0.0359
* Y532N (base T4143A, input reads 278) -> 0.0177
* A538P (base G4161C, input reads 110) -> 0.0894
* N545Y (base A4182T, input reads 297) -> 0.0662
* L551S (base T4201C, input reads 292) -> 0.0786
* A554P (base G4209C, input reads 119) -> 0.0551
* L560P (base T4228C, input reads 237) -> 0.181

A selection of 4 entries from above:

- S68T (base G2752C, input reads 95): 0.0896
- A129T (base G2934A, input reads 494): 0.114
- A446T (base G3885A, input reads 262): 0.230
- A538P (base G4161C, input reads 110): 0.0894

Values reported by Al-Mawsawi et al. 2014 (doi:10.1186/s12977-014-0124-6).